What all share (type): cell-based, Saccharomyces cerevisiae
What all share (parameters): key: 0: SH3-independent; 1: SH3-dependent PPIs; 2: SH3-inhibited PPIs

The test system of one series is BEM1-1. Description: DHFR-PCA on solid medium, bait BEM1-1 (Fig. 1B). The settings on record: bait BEM1-1, label = prey. The source says: (§1) Supplement 41467_2021_21873_MOESM8_ESM.xlsx, sheet "Fig1B" | column: medsize; medrep; Ratio; Score
The next series relates to BEM1-2. Briefly: DHFR-PCA on solid medium, bait BEM1-2 (Fig. 1B). The settings on record: bait BEM1-2, label = prey.
From the text: as §1

A further series relates to ABP1. Briefly: DHFR-PCA on solid medium, bait ABP1 (Fig. 1B). Particulars: bait ABP1, label = prey.
From the text: as §1

No dose or concentration is given here for some results.

B1: YLR332W (protein, UniProt P36027 26-376, looked up)
Cell wall integrity sensor …: QFFVQSSSSNSSAVSTARSSVSRVSSSSSILSSSMVSSSSADSSSLTSSTSSRSLVSHTSSSTSIASISFTSFSFSSDSSTSSSSSASSDSSSSSSFSISSTSATSESSTSSTQTSTSSSSSLSSTPSSSSSPSTITSAPSTSSTPSTTAYNQGSTITSIINGKTILSNHYTTVTYTPSATADSSNKSKSSGLSKKNRNIVIGCVVGIGVPLILVILALIYMFCIQSSRTDFIDSDGKVVTAYRANKFTKWWYMLLGKKVSDEYHSDSPLGGSASSAGGLDLDEADDVMEQSSLFDVRIRDSDSVLPNANTADHNNTNSGGEPINSSVASNDIIEEKFYDEQGNELSPRNY
Regarding B1, the Score with BEM1-1 is reported as 0; in the series on BEM1-2, 0; in the series with ABP1, 2.

B2: YLR314C (protein, UniProt P32457 2-520, looked up)
Cell division control protein …: SLKEEQVSIKQDPEQEERQHDQFNDVQIKQESQDHDGVDSQYTNGTQNDDSERFEAAESDVKVEPGLGMGITSSQSEKGQVLPDQPEIKFIRRQINGYVGFANLPKQWHRRSIKNGFSFNLLCVGPDGIGKTTLMKTLFNNDDIEANLVKDYEEELANDQEEEEGQGEGHENQSQEQRHKVKIKSYESVIEENGVKLNLNVIDTEGFGDFLNNDQKSWDPIIKEIDSRFDQYLDAENKINRHSINDKRIHACLYFIEPTGHYLKPLDLKFMQSVYEKCNLIPVIAKSDILTDEEILSFKKTIMNQLIQSNIELFKPPIYSNDDAENSHLSERLFSSLPYAVIGSNDIVENYSGNQVRGRSYPWGVIEVDNDNHSDFNLLKNLLIKQFMEELKERTSKILYENYRSSKLAKLGIKQDNSVFKEFDPISKQQEEKTLHEAKLAKLEIEMKTVFQQKVSEKEKKLQKSETELFARHKEMKEKLTKQLKALEDKKKQLELSINSASPNVNHSPVPTKKKGFLR
Take B2: the Score in the series with BEM1-1 amounted to 0; in the series with BEM1-2, 1; in the series with ABP1, 0.

B3: YDL225W (protein, UniProt Q07657 2-551, looked up)
Seventh homolog of septin 1: STASTPPINLFRRKKEHKRGITYTMLLCGPAGTGKTAFANNLLETKIFPHKYQYGKSNASISSNPEVKVIAPTKVVSFNSKNGIPSYVSEFDPMRANLEPGITITSTSLELGGNKDQGKPEMNEDDTVFFNLIMTHGIGENLDDSLCSEEVMSYLEQQFDIVLAEETRIKRNPRFEDTRVHVALYFIEPTGHGLREVDVELMKSISKYTNVLPIITRADSFTKEELTQFRKNIMFDVERYNVPIYKFEVDPEDDDLESMEENQALASLQPFAIITSDTRDSEGRYVREYPWGIISIDDDKISDLKVLKNVLFGSHLQEFKDTTQNLLYENYRSEKLSSVANAEEIGPNSTKRQSNAPSLSNFASLISTGQFNSSQTLANNLRADTPRNQVSGNFKENEYEDNGEHDSAENEQEMSPVRQLGREIKQENENLIRSIKTESSPKFLNSPDLPERTKLRNISETVPYVLRHERILARQQKLEELEAQSAKELQKRIQELERKAHELKLREKLINQNKLNGSSSSINSLQQSTRSQIKKNDTYTDLASIASGRD
Consider B3, for which the Score with BEM1-1 is recorded as 0; in the series on BEM1-2, 1; in the series on ABP1 it was 0.

B4: YBR200W (protein, UniProt P29366 1-551, looked up)
Bud emergence protein 1: MLKNFKLSKRDSNGSKGRITSADISTPSHDNGSVIKHIKTVPVRYLSSSSTPVKSQRDSSPKNRHNSKDITSPEKVIKAKYSYQAQTSKELSFMEGEFFYVSGDEKDWYKASNPSTGKEGVVPKTYFEVFDRTKPSSVNGSNSSSRKVTNDSLNMGSLYAIVLYDFKAEKADELTTYVGENLFICAHHNCEWFIAKPIGRLGGPGLVPVGFVSIIDIATGYATGNDVIEDIKSVNLPTVQEWKSNIARYKASNISLGSVEQQQQQSITKPQNKSAKLVDGELLVKASVESFGLEDEKYWFLVCCELSNGKTRQLKRYYQDFYDLQVQLLDAFPAEAGKLRDAGGQWSKRIMPYIPGPVPYVTNSITKKRKEDLNIYVADLVNLPDYISRSEMVHSLFVVLNNGFDREFERDENQNNIKTLQENDTATFATASQTSNFASTNQDNTLTGEDLKLNKKLSDLSLSGSKQAPAQSTSGLKTTKIKFYYKDDIFALMLKGDTTYKELRSKIAPRIDTDNFKLQTKLFDGSGEEIKTDSQVSNIIQAKLKISVHDI
As to B4, the Score with BEM1-1 came to 0; in the series with BEM1-2, 1; with ABP1, 2.

B5: YML016C (protein, UniProt P26570 2-692, looked up)
Serine/threonine-protein …: GNSSSKSSKKDSHSNSSSRNPRPQVSRTETSHSVKSAKSNKSSRSRRSLPSSSTTNTNSNVPDPSTPSKPNLEVNHQRHSSHTNRYHFPSSSHSHSNSQNELLTTPSSSSTKRPSTSRRSSYNTKAAADLPPSMIQMEPKSPILKTNNSSTHVSKHKSSYSSTYYENALTDDDNDDKDNDISHTKRFSRSSNSRPSSIRSGSVSRRKSDVTHEEPNNGSYSSNNQENYLVQALTRSNSHASSLHSRKSSFGSDGNTAYSTPLNSPGLSKLTDHSGEYFTSNSTSSLNHHSSRDIYPSKHISNDDDIENSSQLSNIHASMENVNDKNNNITDSKKDPNEEFNDIMQSSGNKNAPKKFKKPIDIDETIQKLLDAGYAAKRTKNVCLKNNEILQICIKAREIFLSQPSLLELSPPVKIVGDVHGQYGDLLRLFTKCGFPPSSNYLFLGDYVDRGKQSLETILLLFCYKIKYPENFFLLRGNHECANVTRVYGFYDECKRRCNIKIWKTFIDTFNTLPLAAIVAGKIFCVHGGLSPVLNSMDEIRHVVRPTDVPDFGLINDLLWSDPTDSPNEWEDNERGVSYCYNKVAINKFLNKFGFDLVCRAHMVVEDGYEFFNDRSLVTVFSAPNYCGEFDNWGAVMSVSEGLLCSFELLDPLDSAALKQVMKKGRQERKLANQQQQMMETSITNDNESQQ
Regarding B5, the Score is 0 in the series with BEM1-1, 1 with BEM1-2 and 2 in the series with ABP1.

B6: YJR076C (protein, UniProt P32458 2-415, looked up)
Cell division control protein …: SGIIDASSALRKRKHLKRGITFTVMIVGQSGSGRSTFINTLCGQQVVDTSTTILLPTDTSTEIDLQLREETVELEDDEGVKIQLNIIDTPGFGDSLDNSPSFEIISDYIRHQYDEILLEESRVRRNPRFKDGRVHCCLYLINPTGHGLKEIDVEFIRQLGSLVNIIPVISKSDSLTRDELKLNKKLIMEDIDRWNLPIYNFPFDEDEISDEDYETNMYLRTLLPFAIIGSNEVYEMGGDVGTIRGRKYPWGILDVEDSSISDFVILRNALLISHLHDLKNYTHEILYERYRTEALSGESVAAESIRPNLTKLNGSSSSSTTTRRNTNPFKQSNNINNDVLNPASDMHGQSTGENNETYMTREEQIRLEEERLKAFEERVQQELLLKRQELLQREKELREIEARLEKEAKIKQEE
For the molecule B6, the Score in the series on BEM1-1 was determined as 0; with BEM1-2, 1; in the series with ABP1 it was 2.

B7: YCR002C (protein, UniProt P25342 1-322, looked up)
Cell division control protein …: MDPLSSVQPASYVGFDTITNQIEHRLLKKGFQFNIMVVGQSGLGKSTLINTLFASHLIDSATGDDISALPVTKTTEMKISTHTLVEDRVRLNINVIDTPGFGDFIDNSKAWEPIVKYIKEQHSQYLRKELTAQRERFITDTRVHAILYFLQPNGKELSRLDVEALKRLTEIANVIPVIGKSDTLTLDERTEFRELIQNEFEKYNFKIYPYDSEELTDEELELNRSVRSIIPFAVVGSENEIEINGETFRGRKTRWSAINVEDINQCDFVYLREFLIRTHLQDLIETTSYIHYEGFRARQLIALKENANSRSSAHMSSNAIQR
With B7, the Score with BEM1-1 worked out at 0; in the series on BEM1-2, 1; with ABP1, 0.

B8: YIL033C (protein, UniProt P07278 2-416, looked up)
cAMP-dependent protein kinase …: VSSLPKESQAELQLFQNEINAANPSDFLQFSANYFNKRLEQQRAFLKAREPEFKAKNIVLFPEPEESFSRPQSAQSQSRSRSSVMFKSPFVNEDPHSNVFKSGFNLDPHEQDTHQQAQEEQQHTREKTSTPPLPMHFNAQRRTSVSGETLQPNNFDDWTPDHYKEKSEQQLQRLEKSIRNNFLFNKLDSDSKRLVINCLEEKSVPKGATIIKQGDQGDYFYVVEKGTVDFYVNDNKVNSSGPGSSFGELALMYNSPRAATVVATSDCLLWALDRLTFRKILLGSSFKKRLMYDDLLKSMPVLKSLTTYDRAKLADALDTKIYQPGETIIREGDQGENFYLIEYGAVDVSKKGQGVINKLKDHDYFGEVALLNDLPRQATVTATKRTKVATLGKSGFQRLLGPAVDVLKLNDPTRH
As to B8, the Score in the series with BEM1-1, in the series with BEM1-2 and in the series on ABP1 was 0 in each case.

B9: YCR030C (protein, UniProt P25623 1-870, looked up)
Suppressor of yeast profilin …: MTEQRTKYADSILTTKSPYEATETIRIRLSQVKLLNKDFYLLFKELANLKRNYAQQLRKIIAENEDITKILNAQMIESNVLTPQEMSAFRFNSLGELRNVWDTVIEELKSDLKSSTEYYNTLDQQVVRELKESVENNTSWRESKDLHSKLSKNAASIEHYSKNNENSSHLEEARRQWDQQSPYLFELFETIDYNRLDTLKNCMLRFQTSFSDYLLNTTKECETVMTKFLAFEPQSEIDRFAKDASQYNFQLSSSSKEVVPNNASPASATGARPVSVSNGAANTEREKKSPQKDKRKSAFGNIGHRLASASSSLTHNDLMNNEFSDSTNNSSLKSKKSSHTLRSKVGSIFGRNKTKNKRQQQSSSNSHIQASITETPNNSSTRVSSTATSSIYQKQRRPTYSSSKSNNWTPGEASDTPPLPPHATPKNVDAPVTADTPPAQTFTPSEVPPSTPQQSSPPTAKEPDSSNLPKTVPISISQPPLQPQSKTKPLPVEPASPSISLPTATVDNQPSGQVDSRPLHIRAPALPPSRKQNFIHNRDSQLYDSLPNHGSGATPTSSSLSSIPQERPVSTLSSQITGELRELNPQATGSSTSLVGQSLFQHSSLDTSQFGLNASIAEVLNASFKDGMLQNSQLIGEIALNYLPNSVMNSPLPIGINLRINNGAKFEKVILNQAFIERVAPEEFKVNPSFIDSRTLGAIKYSIKEPIAPIVIHPVWRFESHQASVVLTVKMSPSLPDEISQIVIEDLVVFVNIDGANATSALSKPQGSFSKEKKRITWRFKEPVVLTRNGEGQRLIARFITDGLAHESAKGVITKFTISETDNVALPHSGAGSGITLTCQELDENNPFGGEWLDVNTKRTLTTGNYHGLA
Turning to B9, the figures for the Score in the series with BEM1-1, in the series with BEM1-2 and in the series with ABP1 were 1, 1 and 0, respectively.

The values are drawn from PMC7954794, “Protein context shapes the specificity of SH3 domain-mediated interactions in vivo” (Nature Communications, 2021).
